## PSTVd loop 6 mutant pool in Nicotiana benthamiana

PSTVd intermediate strain, loop 6: wild type UGACCGCGAG, pool pattern UNNNCGNNNG; upper and lower strand joined, each 5' to 3', the first 5 letters being the upper strand, closing pairs included.

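A pool of all variants was put on leaves of three Nicotiana benthamiana plants. Samples came from the inoculated region at 5 days, the leaf margin at 10 and upper systemic leaves at 12.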

Values are reads per thousand in the sample; higher means more abundant, 0 means not found. Each site shows the three plants. "Pool" is the share in the plasmid pool used as inoculum, on the same scale. The inoculated region was read from the minus strand, the other sites from the plus strand. IR is the inoculated region, LM the leaf margin, Sys the systemic leaves. Sequences that differ at fixed positions probably stem from PCR or sequencing errors, and defective variants can be carried along by functional ones. Wild type was 20.7 per thousand in the pool and the most common sequence in every sample (inoculated region 195, 198, 203; leaf margin 629, 591, 734; systemic leaves 942, 870, 868). Samples held 36,220 to 57,551 reads, so the smallest values rest on one or two reads.

{"sequence": "UAACCGCAUG", "pool": "0.0784", "IR": "0.608 0.665 0.424", "LM": "0.110 0.126 0.0696", "Sys": "0 0.0606 0.0205"}
{"sequence": "UAACCGCCAG", "pool": "0.157", "IR": "0.660 0.719 0.645", "LM": "0.0828 0.0757 0.0696", "Sys": "0 0.0404 0.0615"}
{"sequence": "UAACCGCCCG", "pool": "0.196", "IR": "0.643 0.665 0.535", "LM": "0.0552 0.0757 0.0696", "Sys": "0 0 0"}
{"sequence": "UAACCGCCGG", "pool": "0.183", "IR": "0.0695 0.0898 0.111", "LM": "0 0 0.0232", "Sys": "0 0 0"}
{"sequence": "UAACCGCCUG", "pool": "0.131", "IR": "0.643 0.611 0.516", "LM": "0.0828 0 0", "Sys": "0 0 0"}
{"sequence": "UAACCGCGAG", "pool": "0.0915", "IR": "14.9 19.1 18.4", "LM": "7.12 35.2 0.418", "Sys": "6.29 15.2 12.5"}
{"sequence": "UAACCGCGCG", "pool": "0.170", "IR": "0.747 0.521 0.738", "LM": "0.110 0.101 0.0464", "Sys": "0.0180 0.0202 0.0205"}
{"sequence": "UAACCGCGGG", "pool": "0.275", "IR": "0.104 0.126 0.0922", "LM": "0 0 0.0232", "Sys": "0 0.0606 0"}
{"sequence": "UAACCGCGUA", "pool": "0.0131", "IR": "0.643 0.844 0.406", "LM": "0.193 0.126 0.0696", "Sys": "0 0 0"}
{"sequence": "UAACCGCGUG", "pool": "0.170", "IR": "0.712 0.647 0.406", "LM": "0.166 0.126 0.0928", "Sys": "0 0 0"}
{"sequence": "UAACCGCUAG", "pool": "0.0392", "IR": "0.712 0.701 0.479", "LM": "0.110 0.151 0.116", "Sys": "0.0180 0.0202 0.0410"}
{"sequence": "UAACCGCUCG", "pool": "0.261", "IR": "0.712 0.772 0.535", "LM": "0.0828 0.0757 0.0696", "Sys": "0 0 0"}
{"sequence": "UAACCGCUGG", "pool": "0.157", "IR": "0.174 0.0539 0.129", "LM": "0.0276 0 0", "Sys": "0 0 0"}
{"sequence": "UAACCGCUUG", "pool": "0.157", "IR": "0.209 0.108 0.111", "LM": "0.0276 0 0.0464", "Sys": "0 0 0"}
{"sequence": "UAACCGGAAG", "pool": "0.105", "IR": "0.834 0.754 0.701", "LM": "0.110 0.0504 0.0464", "Sys": "0 0 0"}
{"sequence": "UAACCGGACG", "pool": "0.301", "IR": "0.747 0.539 0.535", "LM": "0.0552 0.101 0.162", "Sys": "0 0 0"}
{"sequence": "UAACCGGAGG", "pool": "0.131", "IR": "0.0869 0.0180 0.129", "LM": "0.0276 0 0.0464", "Sys": "0 0 0"}
{"sequence": "UAACCGGAGU", "pool": "0.0131", "IR": "0 0 0", "LM": "0 0 0", "Sys": "0 0 0"}
{"sequence": "UAACCGGAUG", "pool": "0.0915", "IR": "0.122 0.126 0.0922", "LM": "0.0552 0 0.0232", "Sys": "0 0 0"}
{"sequence": "UAACCGGCAG", "pool": "0.261", "IR": "0.0348 0.0719 0.129", "LM": "0 0 0", "Sys": "0 0 0"}
{"sequence": "UAACCGGCCG", "pool": "0.131", "IR": "0.0869 0.0719 0.129", "LM": "0 0 0", "Sys": "0 0 0"}
{"sequence": "UAACCGGCGG", "pool": "0.209", "IR": "0.0869 0.0719 0.0922", "LM": "0 0 0", "Sys": "0 0 0"}
{"sequence": "UAACCGGCUG", "pool": "0.183", "IR": "0.0174 0.0539 0.0922", "LM": "0.0276 0 0.0464", "Sys": "0 0 0"}
{"sequence": "UAACCGGGAG", "pool": "0.170", "IR": "0.122 0.162 0.0922", "LM": "0 0 0", "Sys": "0 0 0"}
{"sequence": "UAACCGGGCG", "pool": "0.118", "IR": "0.678 0.647 0.553", "LM": "0.0552 0.0757 0.0464", "Sys": "0 0 0"}
{"sequence": "UAACCGGGGG", "pool": "0.209", "IR": "0.139 0.0719 0.0738", "LM": "0.0276 0 0.0232", "Sys": "0 0 0"}
{"sequence": "UAACCGGGUG", "pool": "0.235", "IR": "0.0869 0.126 0.148", "LM": "0 0 0", "Sys": "0 0 0"}
{"sequence": "UAACCGGUAG", "pool": "0.222", "IR": "0.0869 0.0539 0.111", "LM": "0 0 0", "Sys": "0 0 0"}
{"sequence": "UAACCGGUCG", "pool": "0.183", "IR": "0.0348 0.0359 0.0922", "LM": "0.0276 0 0.0464", "Sys": "0 0 0"}
{"sequence": "UAACCGGUGG", "pool": "0.196", "IR": "0.0521 0.0359 0.111", "LM": "0 0 0.0232", "Sys": "0 0 0"}
{"sequence": "UAACCGGUUG", "pool": "0.261", "IR": "0.104 0.0359 0.0553", "LM": "0 0 0", "Sys": "0 0 0"}
{"sequence": "UAACCGUAAG", "pool": "0.0392", "IR": "0.851 0.503 0.516", "LM": "0.0276 0.126 0.0464", "Sys": "0.0180 0.0606 0.0820"}
{"sequence": "UAACCGUACG", "pool": "0.170", "IR": "0.834 0.629 0.590", "LM": "0.110 0 0.0232", "Sys": "0 0 0"}
{"sequence": "UAACCGUAGG", "pool": "0.340", "IR": "0.122 0.0180 0.111", "LM": "0.0276 0 0.0232", "Sys": "0 0 0"}
{"sequence": "UAACCGUAUG", "pool": "0.248", "IR": "0.191 0.198 0.0553", "LM": "0.442 0 0", "Sys": "0 0 0"}
{"sequence": "UAACCGUCAG", "pool": "0.222", "IR": "0.782 0.701 0.424", "LM": "0.138 0.151 0.0696", "Sys": "0 0.0808 0.0615"}
{"sequence": "UAACCGUCCG", "pool": "0.105", "IR": "0.747 0.916 0.479", "LM": "0.110 0.0504 0.0928", "Sys": "0 0.0404 0.0205"}
{"sequence": "UAACCGUCGG", "pool": "0.196", "IR": "0.0695 0.126 0.0738", "LM": "0 0 0.0232", "Sys": "0 0 0"}
{"sequence": "UAACCGUCUG", "pool": "0.327", "IR": "0.122 0.0898 0.111", "LM": "0 0 0.0232", "Sys": "0 0 0"}
{"sequence": "UAACCGUGAG", "pool": "0.196", "IR": "0.782 0.683 0.461", "LM": "0.0552 0.202 0.0696", "Sys": "0 0 0"}

The opening 2 entries, copied out:

- UAACCGCAUG (pool 0.0784): IR 0.608 0.665 0.424; LM 0.110 0.126 0.0696; Sys 0 0.0606 0.0205
- UAACCGCCAG (pool 0.157): IR 0.660 0.719 0.645; LM 0.0828 0.0757 0.0696; Sys 0 0.0404 0.0615

From the data files of Wu et al. 2024, doi:10.1371/journal.ppat.1012142.